In patent publication US8933019B2, “Antiviral cell-penetrating peptides” (priority 2008, dated 2015) one finds IC50 and CC50 data, which are given here for 1 compound.

One data set relates to HIV-1 IIIB. The conditions noted are these: read-out: IC50 (μM) ± SD, antiviral activity against HIV-1 IIIB; MT-2 cells, p24 production, fourth day post-infection.
Data set [1] is described as follows: Cytotoxicity, XTT method, MT-2 cells. The conditions noted are these: human, read-out: CC50 (μM) ± SD, cytotoxicity in MT-2 cells. It counts as cell-based. On the procedure:
Cytotoxicity of peptides in MT-2 cells and PBMC was measured by the XTT [(sodium 3′-(1-(phenylamino)-carbonyl)-3,4-tetrazolium-bis(4-methoxy-6-nitro) bezenesulfonic acid hydrate)] method as previously described (Jiang et al., 2004). Briefly, for MT-2 cells, 100 μl of a peptide at graded concentrations was added to an equal volume of cells (1×10^5 cells/ml) in 96-well plates followed by incubation at 37° C. for 4 days, which ran parallel to the neutralization assay in MT-2 (except medium was added instead of virus). In the case of PBMC, 5×10^5 cells/ml were used and the cytotoxicity was measured after 7 days. After addition of XTT (PolySciences, Inc.), the soluble intracellular formazan was quantitated colorimetrically at 450 nm 4 hr later with a reference at 620 nm. The percent of cytotoxicity and the CC50 values were calculated as above (Table 2 and Table 3).
(Tetrazolium dyes change colour on reduction, which living cells bring about.)

As a reminder, the IC50 is the midpoint of a concentration-inhibition curve. Broadly, the CC50 is the concentration giving 50% cytotoxicity. `CSCC[C@@H]1NC(=O)[C@H](Cc2c[nH]c3ccccc23)NC(=O)[C@@](C)(NC(=O)[C@H](CCC(=O)O)NC(=O)[C@@H](NC(=O)[C@H](CCCCN)NC(=O)[C@H](C)N)C(C)C)CCCC=CCCC[C@@](C)(C(=O)N[C@H](C(=O)N[C@@H](CC(C)C)C(=O)N[C@@H](CC(C)C)C(=O)N[C@H](C(=O)N[C@@H](C)C(N)=O)C(C)C)[C@@H](C)O)NC(=O)[C@H]([C@@H](C)O)NC1=O` [NYAD-210, AKVEXWMTXTLLVA]: the IC50 in the data set with HIV-1 IIIB was 5.15 ± 0.76 µM. Also, the CC50 at 4 days in data set [1] is greater than 112 µM.
